Source: PubChem BioAssay AID624099 (ICCB-Longwood, 2012)
This is a random part of about 21,000 deposited reagents. 497 of them (2.4%) count as active. 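Higher z means weaker E2 silencing; only reporter increases were scored, and knock-downs that hurt cell survival may mask genuine repressor factors.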 A number with no mark means an inactive call. Reagents against one gene are numbered here.

- Aim: 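Knock-downs relieving repression by E2 of an HPV18 LCR luciferase reporter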 (primary screen)
- Cell system: human C33A cervical carcinoma cells (HPV-negative) stably expressing BPV1 E2 and an HPV18 LCR luciferase reporter
- Reagent: siRNA pool against human genes, 40 nM
- Time to read-out: 72 h
- Read-out: 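HPV18 LCR reporter light per well, converted to plate-wise z-scores that exclude control wells, and averaged over triplicate plates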
- Reading the numbers: mean z-score and z-score: higher = stronger reporter signal, weaker E2 silencing
- Call rule: 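Hit if mean z-score reaches 2 and two or more of three replicate z-scores also reach 2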

| gene knocked down | reagent | mean z-score | z-score, replicate A | z-score, replicate B | z-score, replicate C |
| --- | --- | --- | --- | --- | --- |
| TRANK1 | 1 | -0.63 | -0.79 | -0.5 | -0.61 |
| NUP210P1 | 1 | 0.99 | 0.89 | 1.15 | 0.93 |
| ZYG11B | 1 | -0.01 | -0.06 | 0.07 | -0.04 |
| MPC1L | 1 | 0.3 | 0.31 | 0.52 | 0.08 |
| HLA-L | 1 | -1.08 | -1.04 | -1.14 | -1.05 |
| EML6 | 1 | -0.2 | 0.59 | -0.48 | -0.69 |
| LOC389757 (retired record) | 1 | -1 | -1.05 | -1.01 | -0.95 |
| GPR25 | 1 | -1.15 | -0.96 | -1.03 | -1.44 |
| LINC00639 | 1 | -1.14 | -0.93 | -1.28 | -1.2 |
| AKR1B1 | 1 | 0.69 | 0.55 | 0.92 | 0.59 |
| LINC01936 | 1 | -0.53 | -0.6 | -0.5 | -0.48 |
| RAI2 | 1 | 1.25 | 1.18 | 1.53 | 1.04 |
| NEDD9 | 1 | -0.61 | -0.76 | -0.39 | -0.68 |
| DPY19L2 | 1 | 0.14 | -0.37 | 0.53 | 0.27 |
| WDR73 | 1 | 0.77 | 0.45 | 1.07 | 0.78 |
| SLC39A11 | 1 | -0.32 | -0.06 | -0.74 | -0.17 |
| LOC200493 (retired record) | 1 | 1.85 | 1.68 | 1.9 | 1.97 |
| LOC388148 (retired record) | 1 | 0.84 | 1.07 | 0.74 | 0.73 |
| PLPP4 | 1 | -0.1 | 0.29 | -0.17 | -0.42 |
| ZNF543 | 1 | -1.02 | -1.19 | -1.11 | -0.75 |
| NDUFAF6 | 1 | -1.37 | -0.71 | -1.6 | -1.8 |
| GNAI2P2 | 1 | -0.24 | -0.58 | 0.02 | -0.16 |
| IZUMO1R | 1 | 0.02 | -0.06 | 0.12 | 0 |
| OXGR1 | 1 | -1.73 | -1.82 | -1.74 | -1.64 |
| GPAT2 | 1 | 0.07 | 0 | 0.02 | 0.19 |
| UROS | 1 | 0.06 | 0.03 | 0 | 0.16 |
| THBS2 | 1 | 1.37 | 1.39 | 1.25 | 1.47 |
| TPST2 | 1 | 1.13 | 1.32 | 0.98 | 1.08 |
| APBA3 | 1 | -0.2 | -0.32 | 0 | -0.28 |
| SENP5 | 1 | 0.49 | 0.59 | 0.38 | – |
| ZSCAN26 | 1 | -0.46 | -0.42 | -0.49 | -0.45 |

Records above whose target name starts with L or l:
| gene knocked down | reagent | mean z-score | z-score, replicate A | z-score, replicate B | z-score, replicate C |
| --- | --- | --- | --- | --- | --- |
| LOC389757 (retired record) | 1 | -1 | -1.05 | -1.01 | -0.95 |
| LINC00639 | 1 | -1.14 | -0.93 | -1.28 | -1.2 |
| LINC01936 | 1 | -0.53 | -0.6 | -0.5 | -0.48 |
| LOC200493 (retired record) | 1 | 1.85 | 1.68 | 1.9 | 1.97 |
| LOC388148 (retired record) | 1 | 0.84 | 1.07 | 0.74 | 0.73 |

Further entries follow:
| gene knocked down | reagent | mean z-score | z-score, replicate A | z-score, replicate B | z-score, replicate C |
| --- | --- | --- | --- | --- | --- |
| MAGEA5P | 1 | -1.67 | -1.64 | -1.75 | -1.61 |
| CCT8L1P | 1 | -1.24 | -1.4 | -1.3 | -1.04 |
| CCT8L1P | 2 | -0.85 | -1.01 | -0.55 | -0.99 |
| LOC387941 (retired record) | 1 | -0.67 | -0.81 | -0.25 | -0.96 |
| PDE7A | 1 | 0.7 | 0.35 | 0.73 | 1.01 |
| MSR1 | 1 | -0.59 | -0.67 | -0.57 | -0.53 |
| AFTPH | 1 | -0.12 | 0.03 | 0 | -0.37 |
| ARHGAP28 | 1 | -0.1 | -0.14 | -0.05 | -0.11 |
| DUSP14 | 1 | -0.26 | -0.13 | -0.51 | -0.15 |
| WAC-AS1 | 1 | 0.7 | 0.11 | 1.31 | 0.68 |
| PLA2G5 | 1 | -0.68 | -0.67 | -0.52 | -0.85 |
| ILF3 | 1 | -1.54 | -1.51 | -1.61 | -1.5 |
| MGAT5B | 1 | -1.48 | -1.08 | -2.06 | -1.29 |
| RABL6 | 1 | 0.88 | 0.98 | 0.91 | 0.75 |
| NSA2 | 1 | -0.95 | -1.01 | -0.82 | -1.02 |
| LOC389405 (retired record) | 1 | -0.82 | -0.75 | -1.06 | -0.65 |
| USH1G | 1 | -1.03 | -0.99 | -1.07 | -1.03 |
| DEXI | 1 | -0.58 | -0.6 | -0.41 | -0.73 |
| NAV1 | 1 | 0.81 | 0.78 | 0.82 | 0.83 |
| COL5A2 | 1 | 0.71 | 0.82 | 0.52 | 0.78 |
| WWC3 | 1 | 0.81 | 0.6 | 0.82 | 1.01 |
| RTL8A | 1 | 1.41 | 1.37 | 1.29 | 1.56 |
| C17orf78 | 1 | -0.27 | -0.15 | -0.36 | -0.29 |
| CA9 | 1 | 1 | 0.75 | 1.04 | 1.23 |
| BMAL1 | 1 | 0.21 | 0.23 | 0.19 | 0.21 |
| CSTL1 | 1 | 1.02 | 0.63 | 0.9 | 1.54 |
| ZNF14 | 1 | -0.08 | -0.11 | -0.1 | -0.02 |
| VDAC3 | 1 | 0.57 | 0.34 | 1.02 | 0.34 |
| DRC5 | 1 | -0.31 | -0.33 | -0.36 | -0.23 |
| PPP1R14D | 1 | -1.36 | -0.98 | -1.43 | -1.66 |
| ARHGAP19 | 1 | -0.19 | -0.34 | -0.39 | 0.16 |
| TAS2R13 | 1 | -0.61 | -0.86 | -0.36 | -0.6 |
| ANXA4 | 1 | -0.94 | -1.25 | -0.75 | -0.83 |
| NUCB2 | 1 | -0.01 | -0.19 | 0.21 | -0.05 |
| OR52A4P | 1 | 1.56 | 1.94 | 1.67 | 1.09 |
| SNRNP48 | 1 | -0.24 | -0.48 | 0.07 | -0.33 |
| OR4C11 | 1 | 0.72 | 0.47 | 0.85 | 0.84 |
| SLURP1 | 1 | -0.67 | -0.72 | -0.94 | -0.34 |
| PCDHGC3 | 1 | -0.92 | -0.95 | -0.63 | -1.18 |
| LOC391362 (retired record) | 1 | 0.31 | -0.01 | 0.74 | 0.22 |
| CCR9 | 1 | 0.47 | 0.41 | 0.29 | 0.71 |
| LRG1 | 1 | 2.19 (active) | 2.26 | 1.92 | 2.38 |
